Data as given in PubChem BioAssay AID504406 (Broad Institute, 2011).
Only a part is listed here, and it is no random draw. The source made the active and inactive calls. Rule as the data show it: active = inhibition above about 10% (passing the limit was not always enough); inconclusive = no clear call, values can overlap the other calls.

By UniProt entry, the sequences of proteins in these tests, tags left out.
UniProt P9WIQ1, whole entry: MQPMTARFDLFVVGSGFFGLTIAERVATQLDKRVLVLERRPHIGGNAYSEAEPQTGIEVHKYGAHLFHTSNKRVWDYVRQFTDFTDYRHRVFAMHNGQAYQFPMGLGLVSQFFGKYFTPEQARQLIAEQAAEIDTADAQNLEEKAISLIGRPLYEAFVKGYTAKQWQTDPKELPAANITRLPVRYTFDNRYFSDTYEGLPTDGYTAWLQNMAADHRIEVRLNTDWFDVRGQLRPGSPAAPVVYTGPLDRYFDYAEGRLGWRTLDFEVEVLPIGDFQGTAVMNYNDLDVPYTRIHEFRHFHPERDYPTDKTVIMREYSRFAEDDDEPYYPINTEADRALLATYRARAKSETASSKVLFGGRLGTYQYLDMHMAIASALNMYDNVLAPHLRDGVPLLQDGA

Each compound was assayed against UDP-galactopyranose mutase (Mycobacterium tuberculosis (strain ATCC 25618 / H37Rv)) (UniProt P9WIQ1) (assay: blockers of Mtb UDP-galactopyranose mutase – biochemical, fluorescence polarization, single point, primary screen (AID 504406)). Settings: purified UGM, fluorescence polarization probe displacement; at 10 µM; stronger effect = higher value.
`O=C(NCC1(N2CCCCC2)CCCCC1)c1cccc(C(F)(F)F)c1` was tested, and the inhibition was inactive: 1.19%. `COc1cc(C(=O)NCC2(N3CCCCC3)CCCCC2)ccc1OC(F)F` was tested, and the inhibition was inactive: -0.272%. With `O=C(NCC1(N2CCOCC2)CCCCC1)c1cc(=O)[nH]c2ccccc12` the inhibition was inactive: 1.45%. With `CN1CCN(CCOC(=O)C(O)(c2ccccc2)c2ccccc2)CC1` the inhibition was inactive: -1.88%. For `COc1ccc(NC2CCN(C(=O)OC(C)(C)C)CC2)cc1`, the inhibition was inactive: 2.36%. For `O=C(NCC1(N2CCCCC2)CCCCC1)c1ccc(OC(F)F)cc1`, the inhibition was inactive: -1.53%. With `CCN1CCC(Nc2ccc(Cl)cc2)CC1` the inhibition was inactive: -1.32%. For `N#CC1(Nc2ccccc2)CCN(CCc2ccccc2)CC1`, the inhibition was inactive: 1.3%. `O=C(NCC1(N2CCCCC2)CCCCC1)c1cccc([N+](=O)[O-])c1` was tested, and the inhibition was inactive: 3.47%. For `O=C(NCC1(N2CCCCC2)CCCCC1)c1cncc(Br)c1`, the inhibition was inactive: 1%. With `CN1CCC(Nc2cccc(F)c2)CC1` the inhibition was inactive: -3.45%. With `CCCOc1ccc(C(=O)NCC2(N(C)C)CCCCC2)cc1OC` the inhibition was inactive: -1.4%. `CC(C)c1ccc(NC2CCN(C(=O)OC(C)(C)C)CC2)cc1` was tested, and the inhibition was inactive: 1.41%. For `COc1ccc(CN(CCCl)CCCl)cc1Cl`, the inhibition was inactive: 0.437%. With `CN(C)c1cccc(C(=O)NCC2(N3CCCCC3)CCCCC2)c1` the inhibition was inactive: -1.07%. For `COc1cc(OC)c(C(=O)NCC2(N(C)C)CCCCC2)cc1OC`, the inhibition was inactive: -1.86%. With `O=C(NCC1(N2CCOCC2)CCCCC1)c1cc(F)c(F)cc1Cl` the inhibition was inactive: 1.7%. `O=C(NCC1(N2CCCCC2)CCCCC1)c1ccc(Cl)nc1` was tested, and the inhibition was inactive: -0.212%. With `Cc1cc(C)cc(N(C(=O)c2ccccc2)C2CCN(C(=O)OC(C)(C)C)CC2)c1` the inhibition was inactive: 0.2%. In the case of `O=C(NCC1(N2CCOCC2)CCCCC1)c1cc2ccccc2o1`, the inhibition is reported as inactive: -0.936%. For `O=C(OC1CN2CCC1CC2)C1c2ccccc2Oc2ccccc21` (stereo unspecified), the inhibition was inactive: -1.51%. With `O=C(NCC1(N2CCCCC2)CCCCC1)c1ccc(Cl)s1` the inhibition was inactive: -0.15%. For `N#CC1(Nc2ccccc2)CCN(Cc2ccccc2)CC1`, the inhibition was inactive: 1.35%. `COc1ccc(Cl)cc1C(=O)NCC1(N2CCOCC2)CCCCC1` was tested, and the inhibition was inactive: -2.63%. For `CCOC(=O)N1CCC(Nc2ccc(OC)cc2)CC1`, the inhibition was inactive: -0.923%. `COc1ccc(C(=O)NCC2(N3CCCCC3)CCCCC2)cc1` was tested, and the inhibition was inactive: -1.47%. `COc1ccc(C(=O)NCC2(N3CCCCC3)CCCCC2)c(OC)c1OC` was tested, and the inhibition was inactive: -0.373%. In the case of `CC(C)(C)OC(=O)N1CCC(N(C(=O)c2ccccc2)c2ccc(F)cc2)CC1`, the inhibition is reported as inactive: -2.8%. In the case of `O=C(NCC1(N2CCCCC2)CCCCC1)c1ccc(=O)[nH]c1`, the inhibition is reported as inactive: 2.75%. For `O=C(NCC1(N2CCCCC2)CCCCC1)c1cccs1`, the inhibition was inactive: -0.844%. `CSc1ccccc1C(=O)NCC1(N2CCCCC2)CCCCC1` was tested, and the inhibition was inactive: -0.146%. With `COc1cc(C(=O)NCC2(N(C)C)CCCCC2)ccc1OC(F)F` the inhibition was inactive: -3.23%. `CCOC(=O)N1CCC(Nc2cccc(C)c2)CC1` was tested, and the inhibition was inactive: -1.12%. With `Cc1ccc(OCC(C)C)c(CN(CCCl)CCCl)c1` the inhibition was inactive: 0.553%. In the case of `CCOc1ccc(C)cc1CN(CCCl)CCCl`, the inhibition is reported as inactive: 1.81%. With `O=C(NCC1(N2CCCCC2)CCCCC1)c1ccc(F)cc1` the inhibition was inactive: -0.0945%. In the case of `COc1ccc(NC2CCN(CCc3ccccc3)CC2)c(OC)c1`, the inhibition is reported as inactive: -0.381%. For `CCOC(=O)N1CCC(Nc2ccc(F)cc2)CC1`, the inhibition was inactive: -2%. `CCN1CCC(Nc2cccc(F)c2)CC1` was tested, and the inhibition was inactive: -2.29%. With `O=C(NCC1(N2CCCCC2)CCCCC1)c1ccco1` the inhibition was inactive: -1.27%. In the case of `CN(C)c1ccc(C(=O)NCC2(N3CCCCC3)CCCCC2)cc1`, the inhibition is reported as inactive: -0.126%. `COc1cc(OC)cc(C(=O)NCC2(N3CCCCC3)CCCCC2)c1` was tested, and the inhibition was inactive: 2.37%. With `Cc1ccc(C(=O)NCC2(N3CCCCC3)CCCCC2)o1` the inhibition was inactive: 1.98%. In the case of `Fc1ccccc1NC1CCN(Cc2ccccc2)CC1`, the inhibition is reported as inactive: 1.68%. With `COc1cc(OC)cc(C(=O)NCC2(N3CCOCC3)CCCCC2)c1` the inhibition was inactive: -0.664%. `COc1cccc(C(=O)N(c2cc(C)cc(C)c2)C2CCN(C(=O)OC(C)(C)C)CC2)c1` was tested, and the inhibition was inactive: -0.0395%. `CCC(CO)(C(=O)OC1CN2CCC1CC2)c1ccccc1` (stereo unspecified) was tested, and the inhibition was inactive: 0.225%. `CN1CCC(Nc2ccc(Cl)cc2)CC1` was tested, and the inhibition was inactive: -1.46%. `CCCOc1ccc(C)cc1CN(CCCl)CCCl` was tested, and the inhibition was inactive: 0.325%. With `CCOc1ncccc1C(=O)NCC1(N2CCOCC2)CCCCC1` the inhibition was inactive: -0.401%. For `CN1CCC(Nc2ccc(F)c(Cl)c2)CC1`, the inhibition was inactive: 2.13%. With `CC(C)(C)OC(=O)N1CCC(Nc2ccccc2)CC1` the inhibition was inactive: 0.127%. In the case of `O=C(O)C1(Nc2ccccc2)CCN(Cc2ccccc2)CC1`, the inhibition is reported as inactive: 3.59%. With `CCCOc1ccc(C(=O)NCC2(N(C)C)CCCCC2)cc1` the inhibition was inactive: 0.92%. For `CCOC(=O)N1CCC(Nc2ccc(C)cc2)CC1`, the inhibition was inactive: -1.17%. `N/C(=N\O)c1c(N)no[n+]1[O-]` was tested, and the inhibition was inactive: 1.36%. For `O=C(OC1CN2CCC1CC2)C1c2ccccc2C=Cc2ccccc21` (stereo unspecified), the inhibition was inactive: 1.91%. With `CCc1cc(C(=O)NCC2(N3CCCCC3)CCCCC2)sc1C` the inhibition was inactive: 4.31%. In the case of `COc1cc(C(=O)NCC2(N3CCOCC3)CCCCC2)cc(OC)c1C`, the inhibition is reported as inactive: 0.387%. With `O=C(NCC1(N2CCOCC2)CCCCC1)c1cc(Br)ccc1Cl` the inhibition was inactive: -2.3%. `COc1ccc(C(=O)NCC2(N3CCOCC3)CCCCC2)cc1OC` was tested, and the inhibition was inactive: -2.76%. With `CN(C)C1(CNC(=O)c2cccc(C#N)c2)CCCCC1` the inhibition was inactive: 2.28%. `c1ccc(CN2CCC(Nc3ccccc3)CC2)cc1` was tested, and the inhibition was inactive: 0.693%. `CCCN1CCC(Nc2cc(OC)cc(OC)c2)CC1` was tested, and the inhibition was inactive: 7.2%. In the case of `N#Cc1ccc(C(=O)NCC2(N3CCCCC3)CCCCC2)cc1`, the inhibition is reported as inactive: 2.11%. `CC(C)(C)OC(=O)N1CCC(N(C(=O)c2ccccc2)c2ccc(Cl)cc2)CC1` was tested, and the inhibition was inactive: -2.14%.
